In US20130274178A1 (PHILADELPHIA HEALTH AND EDUCATION CORPORATION D B A DREXEL …, published 2013) one finds Kd and IC50 data, which are given here for 3 molecules.

In test [1] the target is T1, HIV-1YU2 gp120 (HIV-1 strain YU-2, UniProt P35961 32-498, limits assumed).
T1 construct: domain: gp120
Description: SPR direct binding; YU-2 gp120 immobilized (~3500 RU), peptide as analyte.

The target of test [2] is T1, HIV-1YU2 gp120. The test can be described thus: SPR competition; gp120 binding to mAb 17b.

What is called Kd is a measure of binding affinity in units of concentration. Low values mean higher affinity, high ones lower affinity. By IC50 is commonly meant the concentration needed to halve the response being measured.

B1: UM13 (peptide)
peptide: EINNIPWS
modifications: proline 6 is a 1,2,3-triazole-modified proline (Azp) 4-substituted with ferrocene
notes: Rink amide resin
In turn, B1 gave a Kd in test [1] of 5.5 nM.

B2: UM21 (peptide)
peptide: INNIPWS
modifications: proline 5 is a 1,2,3-triazole-modified proline (Azp) 4-substituted with ferrocene
notes: Rink amide resin; also called INNIPWS
On to B2, for which the IC50 in test [2] turned out to be 161 nM. In addition, the Kd in test [1] is 169 nM.

B3: UM10 (peptide)
peptide: PWSEAMM
modifications: proline 1 is a 1,2,3-triazole-modified proline (Azp) 4-substituted with ferrocene
notes: also called PWSEAMM
In test [1], B3 registered an equilibrium dissociation constant (Kd) of 809 nM.
